PubChem BioAssay AID504761, Drosophila RNAi Screening Center, 2011
Assay: 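Genome-wide fly cell screen for genes dengue virus requires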 (primary screen). System: D.Mel-2 cells from Drosophila. Reagent: long dsRNA against Drosophila genes. Challenge: infection with dengue virus type 2; dose and infection time not stated. Measured: 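Cells stained for dengue envelope protein and imaged; percent of infected cells per well on duplicate plates, ranked by infection, with stained nuclei counted for cell number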. Scale: infection score: higher = more virus-infected cells; cell count: higher = more cells in the well. Rule for the call: 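Low infection ranks in the two replicates (chance level up to 0.065) followed by a retest with a 1.5-fold or larger significant decrease, p below 0.05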. Calls: active = confirmed: knock-down lowers infection; inactive = not picked or not confirmed.
The screen tested about 22,000 reagents; this is a random part of those with a known target gene and a result. Over the whole deposit, 116 (0.52%) are marked active. 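Calls depend on retest data that are not deposited; infection was ranked per plate without normalising between plates; the unit of the infection score is not given.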 Raw values are not corrected between plates. Unmarked entries are inactive. Further read-outs or replicates are left out here. No sequences are given here. The record does not give: the amount of reagent, the time to read-out.

What is on record for Naa20A (N(alpha)-acetyltransferase 20 A) [DRSC19579]?
infection score, replicate 1: 13.8; cell count, replicate 1: 6391

What is on record for CG12661 [DRSC17864]?
infection score, replicate 1: 7.42; cell count, replicate 1: 6157

For CG12661 [DRSC29244], how do the results read?
infection score, replicate 1: 19.6; cell count, replicate 1: 5457

What is on record for GstE1 (Glutathione S transferase E1) [DRSC07437]?
cell count, replicate 1: 493

For GstE1 (Glutathione S transferase E1) [DRSC24708], what does the deposit list?
infection score, replicate 1: 0.38; cell count, replicate 1: 6290

With mts (microtubule star) [DRSC03574], how do the results read?
infection score, replicate 1: 18.3; cell count, replicate 1: 1817

With His2Av (Histone H2A variant) [DRSC16702], what does the deposit list?
infection score, replicate 1: 3.36; cell count, replicate 1: 5986

For sov (small ovary) [DRSC17930], what does the deposit list?
infection score, replicate 1: 4.04; cell count, replicate 1: 6117

For sov (small ovary) [DRSC24302], what was measured?
infection score, replicate 1: 3.54; cell count, replicate 1: 5963

How did the screen score BBS9 (Bardet-Biedl syndrome 9) [DRSC04257]?
infection score, replicate 1: 13.8; cell count, replicate 1: 6191

How did the screen score BBS9 (Bardet-Biedl syndrome 9) [DRSC27789]?
infection score, replicate 1: 9.42; cell count, replicate 1: 6867

Which result is listed for CG4860 [DRSC15664]?
infection score, replicate 1: 7.53; cell count, replicate 1: 6557

What did the screen give for CG4860 [DRSC21755]?
infection score, replicate 1: 1.87; cell count, replicate 1: 6311

Which result is listed for CG2972 [DRSC18250]?
infection score, replicate 1: 5.66; cell count, replicate 1: 6294

For CG2972 [DRSC30013], what does the deposit list?
infection score, replicate 1: 17.3; cell count, replicate 1: 5859

Which result is listed for CG3437 [DRSC10366]?
infection score, replicate 1: 0.91; cell count, replicate 1: 6045

What is on record for CG3437 [DRSC24768]?
infection score, replicate 1: 1.87; cell count, replicate 1: 7015

With CG18754 [DRSC15387], what does the deposit list?
infection score, replicate 1: 2.24; cell count, replicate 1: 5719

What did the screen give for bel (belle) [DRSC16555]?
infection score, replicate 1: 3.87; cell count, replicate 1: 1601

How did the screen score bel (belle) [DRSC25066]?
infection score, replicate 1: 4.28; cell count, replicate 1: 6515

Which result is listed for bys (by S6) [DRSC18748]?
infection score, replicate 1: 22.7; cell count, replicate 1: 5987

With bys (by S6) [DRSC29013], how do the results read?
infection score, replicate 1: 20.4; cell count, replicate 1: 4902
